From PMC9517990 (Communications Biology, 2022)

Columns and labels:
[1] = biological target: neuraminidase of A/South Korea/90207/2020 NA-H275Y + PA-I38T virus (Influenza A virus (A(H1N1)pdm09), UniProt A0A0X9QTS2, H275Y); experiment: Fluorometric neuraminidase inhibition assay, NA-H275Y + PA-I38T isolate; type: biochemical; conditions: NA-H275Y + PA-I38T virus isolate vs NA-H275 wild type
[2] = biological target: neuraminidase of A/South Korea/90207/2020 NA-H275Y virus (Influenza A virus (A(H1N1)pdm09), UniProt A0A0X9QTS2, H275Y); experiment: Fluorometric neuraminidase inhibition assay, NA-H275Y isolate; type: biochemical; conditions: NA-H275Y virus isolate vs NA-H275 wild type

`CCC(CC)[C@H](NC(C)=O)[C@@H]1[C@H](O)[C@@H](C(=O)O)C[C@H]1N=C(N)N` [Peramivir, peramivir] was tested, and the “IC50 fold change compared to WT” value [1] was 103 fold, the “IC50 fold change compared to WT” value ([1]; listed as PER) was “approximately 100 fold” and the “IC50 fold change compared to WT” value [2] was 106 fold. The “IC50 fold change compared to WT” value ([2]; listed as PER) was “approximately 100 fold”.
